Assays:
Assay type in all cases: cell-based, Trypanosoma brucei
Tbb msh2-/- = assay: Alamar Blue assay on trypanosomes lacking both MSH2 alleles; settings: read-out: Tbb msh2-/- (EC50; µM) AVG; average of at least 3 independent experiments
Tbb msh2+/- = assay: Alamar Blue assay on trypanosomes lacking one MSH2 allele; settings: read-out: Tbb msh2+/- (EC50; µM) AVG; average of at least 3 independent experiments
Tbb msh2+/+ = assay: Alamar Blue assay on MMR-proficient control trypanosomes; settings: read-out: Tbb msh2+/+ (EC50; µM) AVG; average of at least 3 independent experiments

SMILES: O=[As]c1ccccc1 (stereo not drawn)
- EC50 (Tbb msh2-/-): 0.00093 µM
- EC50 (Tbb msh2+/-): 0.0016 µM
- EC50 (Tbb msh2+/+): 0.00151 µM

From paper PMC4604408, “Targeting the Parasite's DNA with Methyltriazenyl Purine Analogs Is a Safe, Selective, and Efficacious Antitrypanosomal Strategy” (Antimicrobial Agents and Chemotherapy, 2015)
